Test results taken from patent US11135228B2, “Cysteinyl-proresolving mediators that promote resolution of infection and organ protection” (THE BRIGHAM AND WOMEN'S HOSPITAL, priority 2014, dated 2021).

Legend:
[1] = LC-MS-MS MRM quantification of sulfido-conjugate levels in mouse tissues; conditions: endogenous level
[2] = LC-MS-MS MRM quantification of sulfido-conjugate levels in human tissues; conditions: endogenous level
[3] = mean ± SEM, n 6 mice, lavage volume 5 ml

Molecule | 24 h Resolving mouse exudates [1] | Human autopsy spleen [2] | Human sepsis plasma ([2]; mean ± SEM, n 10 patients) [pg/mL] | 24 h Resolving mouse exudates [1, 3] [pg/lavage] | Human sepsis plasma [2] | Human autopsy spleen ([2]; mean ± SEM, n 3 patients) [pg/100 mg]
CCCCC/C=C\C\C=C/C=C/C=C/[C@@H](SC[C@H](N)C(=O)O)[C@@H](O)CCCC(=O)O [LTE4] | ^a (Below limits, ~1 pg) | ^a (Below limits, ~1 pg) | 12.9 ± 2.9 |  |  | 
CCCCC/C=C\C\C=C/C=C/C=C/[C@@H](SC[C@H](NC(=O)CC[C@H](N)C(=O)O)C(=O)NCC(=O)O)[C@@H](O)CCCC(=O)O [LTC4] |  |  |  | 8.3 ± 2.2 | ^a (Below limits, ~1 pg) | 240.7 ± 73.5
CC/C=C\C[C@H](O)/C=C/C=C\C=C\C=C\[C@@H](SC[C@H](NC(=O)CC[C@H](N)C(=O)O)C(=O)NCC(=O)O)[C@@H](O)C/C=C\CCC(=O)O [RCTR1, 8-glutathionyl, 7,17-hydroxy-4Z,9,11,13Z,15E,19Z-docosahexaenoic acid] |  |  |  | 5.8 ± 2.7 | ^a (Below limits, ~1 pg) | 36.0 ± 11.2
CCC=CCC=CCC(O)C(C=CC=CC=CCC=CCCC(=O)O)SCC(N)C(=O)NCC(=O)O (stereo not shown) [SCII, 13-cysteinylglycinyl, 14-hydroxy-docosahexaenoic acid] |  |  |  | 2.4 ± 1.1 | ^a (Below limits, ~1 pg) | 22.9 ± 6.3
CC/C=C\CC(O)C(/C=C/C=C/C=C\C/C=C\C/C=C\CCC(=O)O)SCC(NC(=O)CCC(N)C(=O)O)C(=O)NCC(=O)O (stereo not shown) [PCTR1, 16-glutathionyl, 17-hydroxy-4Z,7Z,10,12,14,19Z-docosahexaenoic acid] |  |  |  | 3.9 ± 2.6 | ^a (Below limits, ~1 pg) | 83.1 ± 24.5
CCCCC/C=C\C\C=C/C=C/C=C/[C@@H](SC[C@H](N)C(=O)NCC(=O)O)[C@@H](O)CCCC(=O)O [LTD4] |  |  |  | 4.9 ± 1.3 | ^a (Below limits, ~1 pg) | 49.3 ± 26.7
13-cysteinyl, 14-hydroxy-docosahexaenoic acid [MCTR3] |  |  | 8.7 ± 2.5 |  |  | 33.1 ± 6.2
CC/C=C\C[C@H](O)[C@@H](/C=C/C=C/C=C\C/C=C\C/C=C\CCC(=O)O)SC[C@H](N)C(=O)O [PCTR3, 16-cysteinyl, 17-hydroxy-4Z,7Z,10,12,14,19Z-docosahexaenoic acid] | ^a (Below limits, ~1 pg) |  | 1.5 ± 0.8 |  |  | 124.5 ± 51.7
CC/C=C\C[C@H](O)[C@@H](/C=C/C=C/C=C\C/C=C\C/C=C\CCC(=O)O)SC[C@H](N)C(=O)NCC(=O)O [PCTR2, 16-cysteinylglycinyl, 17-hydroxy-4Z,7Z,10,12,14,19Z-docosahexaenoic acid] |  | ^a (Below limits, ~1 pg) |  | 3.4 ± 2.8 | ^a (Below limits, ~1 pg) | 
CC/C=C\C[C@H](O)/C=C/C=C\C=C\C=C\[C@@H](SC[C@H](N)C(=O)NCC(=O)O)[C@@H](O)C/C=C\CCC(=O)O [RCTR2, 8-cysteinylglycinyl, 7,17-hydroxy-4Z,9,11,13Z,15E,19Z-docosahexaenoic acid] | ^a (Below limits, ~1 pg) | ^a (Below limits, ~1 pg) |  |  | ^a (Below limits, ~1 pg) | 
13-glutathionyl, 14-hydroxy-docosahexaenoic acid [SCI] |  |  | 3.1 ± 0.9 |  |  | 13.6 ± 5.7
CC/C=C\CC(O)/C=C/C=C\C=C\C=C\C(SCC(N)C(=O)O)C(O)C/C=C\CCC(=O)O (stereo not shown) [RCTR3, 8-cysteinyl, 7,17-hydroxy-4Z,9,11,13Z,15E,19Z-docosahexaenoic acid] | ^a (Below limits, ~1 pg) | ^a (Below limits, ~1 pg) |  |  | ^a (Below limits, ~1 pg) | 
